Anti-infective test results gathered from many reports (values: NIAID ChemDB through PubChem).

Shared fields: whole-cell or culture tests; species: Herpes simplex virus 2; measure: EC50

Lines come from different laboratories, so protocols vary. Two numbers with a dash give a range or band. ECn: concentration that inhibits the pathogen or its effect by n%. An empty or dashed field is not shown.

structure,strain,cells,read by,result
Cc1cn([C@@H]2O[C@H](COP(=O)(O)O)[C@@H](O)[C@@H]2O)c(=O)[nH]c1=O,UW-268,HELF,cytopathic effect,3.2 µg/mL
CC1=C[C@H](n2cnc3c(N)ncnc32)C[C@@]1(CO)c1ccccc1,,CCL-81,cytopathic effect,>100 µg/mL
Nc1nc(=O)n([C@@H]2O[C@H](CO)[C@@H](O)[C@@H]2F)cc1I,42-78,HELF,plaque count,0.37 µM
O=c1c2ncn(COC(CO)CO)c2nc2[nH]c(-c3ccc(F)cc3)cn12,LYONS,HEL,cytopathic effect,1.92 µg/mL
COc1ccc2nc3n[nH]c(C)c3c(SCc3ccco3)c2c1,,FS-85,plaque count,0.7 µg/mL
CC(=O)[C@H]1CCC2C3CC4CC[C@@]5(CCC(=O)C=C45)C3CC[C@@]21C,G,BHK-21,cytopathic effect,20.6 µM
C=C/C=C/c1cn([C@H]2C[C@H](O)[C@@H](CO)O2)c(=O)[nH]c1=O,3345,BHK-21,cytopathic effect,16 µg/mL
Nc1nc2c(ncn2CC[C@@H](O)CO)c(=O)[nH]1,91075,SIRC,plaque count,0.9 µM
Nc1nc2c(ncn2CC[C@@H](O)CO)c(=O)[nH]1,91075,SIRC,plaque count,0.9 µM
CCCc1cn([C@H]2C[C@H](O)[C@@H](CO)O2)c(=O)[nH]c1=O,Strain 196,Primary rabbit kidney cells,cytopathic effect,7 µg/mL
CCCCCCCCCCCCCCCCOP1(=O)CO[C@@H](Cn2ccc(N)nc2=O)CO1,MS,HFF,plaque count,>1 µM
O=c1[nH]c(=O)n([C@H]2C[C@H](O)[C@@H](CO)O2)cc1I,Strain 196,Primary rabbit kidney cells,cytopathic effect,0.7 µg/mL
Nc1nc2c(ncn2C[C@]2(CO)C[C@H]2CO)c(=O)[nH]1,UW-268,MRC-5,plaque count,0.18 µg/mL
C[C@@H](c1ccccc1)N(CC(=O)Nc1ccc(-c2csc(N)n2)cc1)C(=O)c1ccncc1,333,BHK-21/C13,plaque count,0.1 µM
[N-]=[N+]=NC(CBr)c1cc([C@H]2C[C@H](O)[C@@H](CO)O2)c(F)cc1F,G,E6SM,cytopathic effect,>400 µg/mL
OC/C(=C/Cn1cnc2c(Cl)ncnc21)c1ccccc1,,CCL18,cytopathic effect,>100 µg/mL
Nc1nc2c(ncn2COCCO)c(=O)[nH]1,G,FS-71,cytopathic effect,0.23 µg/mL
Nc1nc2c(ncn2CCCCO)c(=O)[nH]1,91075,BHK,plaque count,13 µM
C/C(=C\Cn1cnc2c(N)ncnc21)CO,,CCL18,cytopathic effect,>100 µg/mL
CCCCCCCCCCCCOCCCOP(=O)(O)CO[C@H](CO)Cn1ccc(N)nc1=O,G,HFF,plaque count,>1 µM
O=C(O)P(=O)(O)O,HS-47 (TK+),HEL,cytopathic effect,71 µM
COc1cc(OC)c(NC(=S)Nc2ccc(NC(=O)c3ccccc3F)cc2Cl)cc1Cl,12,HFF,ELISA,6.8 µg/mL
O=C(O)C(O)c1ccccc1,Strain 333,CaSki Cells,plaque count,0.0058 µg/mL
O=c1c2ncn(COCCO)c2nc2[nH]c(-c3ccc(C(F)(F)F)cc3)cn12,G,HEL,cytopathic effect,>16 µg/mL
Nc1ncnc2c1ncn2[C@@H]1O[C@H](CO)[C@@H](O)[C@H]1OP(=O)(O)OC[C@H]1O[C@@H](n2cnc3c(N)ncnc32)[C@H](OP(=O)(O)OC[C@H]2O[C@@H](n3cc(/C=C/Br)c(=O)[nH]c3=O)C[C@@H]2O)[C@@H]1O,LYONS,PRK,cytopathic effect,70 µg/mL
Nc1ncnc2c1ncn2CCCC(O)CF,G,ESM,cytopathic effect,>400 µg/mL
Nc1ncnc2c1ncn2[C@@H]1O[C@H](COP(=O)(O)O)[C@@H](O)[C@@H]1O,MS,MEF,plaque count,31 µM
Nc1nc2c(ncn2COCCO)c(=O)[nH]1,MS,HFF,plaque count,0.8 µg/mL
O=C(O)P(=O)(O)O,Heeter,MEF,plaque count,22.5 µg/mL
Nc1ncnc2c1c(Br)cn2COCCO,,HEF,cytopathic effect,10 µM
Nc1ccn(C[C@@H](CO)OCP(=O)(O)O)c(=O)n1,MS (WILD TYPE),MRC-5,plaque count,9.1 µM
Nc1ncnc2c1ncn2C[C@@H](CO)OCP(=O)(O)O,196,ESM,cytopathic effect,0.07 µg/mL
C=Cc1cn([C@H]2C[C@H](O)[C@@H](CO)O2)c(=O)[nH]c1=O,3345,BHK-21,cytopathic effect,0.5 µg/mL
O=c1ccn([C@@H]2O[C@H](CO)[C@@H](O)[C@H]2O)c(=O)[nH]1,42-78,HELF,plaque count,440 µM
COC(=O)[C@H](C)NP(=O)(OC[C@H]1C/C1=C/n1cnc2c(OC)nc(N)nc21)Oc1ccccc1,,HFF,plaque count,0.88 µM
Cc1cn([C@@H]2O[C@H](CO)[C@H]2CO)c(=O)[nH]c1=O,8705,HFF,plaque count,0.5 µg/mL
C/C(=C\Cn1cnc2c(Cl)ncnc21)CO,,CCL18,cytopathic effect,>100 µg/mL
Nc1nc2c(ncn2COCCO)c(=O)[nH]1,MS,HELF,plaque count,0.11 µg/mL
Nc1nc(=O)n([C@H]2C[C@H](O)[C@@H](CO)O2)cc1/C=C/Br,LYONS,Primary rabbit kidney cells,cytopathic effect,9 µg/mL
CC1=CC(CO)(CO)C[C@H]1n1ccc(N)nc1=O,,CCL-81,cytopathic effect,>100 µg/mL
CCCCCCCC/C=C/CCCCCCCC(=O)OCC(CO)OCn1cnc2c(=O)[nH]c(N)nc21,HS-44 (TK-),HEL,cytopathic effect,70 µM
CCc1cn([C@@H]2O[C@H](COP(=O)(O)O)[C@@H](O)[C@H]2O)c(=O)nc1N,196,,,>400 µg/mL
O=c1[nH]c(=O)n([C@@H]2O[C@H](CO)[C@@H](O)[C@@H]2O)cc1F,42-78,HELF,plaque count,156 µM
C=Cc1cc([C@H]2C[C@H](O)[C@@H](CO)O2)c(F)cc1F,196,E6SM,cytopathic effect,>400 µg/mL
Nc1nc2c(ncn2CC(CO)OCP(=O)(O)O)c(=O)[nH]1,186 (TK-),WI-38,plaque count,0.3 µM
CC(=O)OCCOCN1C(N)=CC(N)=NS1(=O)=O,LYONS,E6SM,,>400 µg/mL
CC/C=C/c1cn([C@H]2C[C@H](O)[C@@H](CO)O2)c(=O)[nH]c1=O,3345,BHK-21,cytopathic effect,100 µg/mL
Cc1cn([C@@H]2O[C@H](CO)[C@@H](O)[C@@H]2O)c(=O)[nH]c1=O,HG-52,HELF,plaque count,0.66 µg/mL
CCCCc1cn([C@@H]2O[C@H](COP(=O)(O)O)[C@@H](O)[C@H]2O)c(=O)nc1N,LYONS,,,>400 µg/mL
CCCCCCCC/C=C\CCCCCCCOCCCOP(=O)(O)CO[C@H](CO)Cn1ccc(N)nc1=O,SR,HFF,plaque count,0.1 µM
Cc1cn([C@@H]2O[C@H](CO)[C@@H](O)[C@@H]2F)c(=O)[nH]c1=O,42-78,HELF,plaque count,0.48 µM
O=C(NCc1ccc(Cl)cc1)c1cn2c3c(cc(CN4CCOCC4)cc3c1=O)OC(c1cccnc1)C2,11361 (ACV-resistant),HFF,plaque count,>17.5 µM
Nc1nc2c(ncn2[C@@H]2C[C@H](CO)[C@H]2CO)c(=O)[nH]1,Curtis,WI-38,plaque count,0.2–0.4 µM
CCCCc1cn([C@@H]2OC3COP(=O)(O)OC3[C@H]2O)c(=O)nc1N,LYONS,,,>400 µg/mL
Cn1cc(C(=O)NCc2ccc(Cl)cc2)c(=O)c2cc(CN3CCOCC3)ccc21,Heeter (wild type),HFF,plaque count,3.5 µM
CC1=CC(=O)N(c2ccccc2)S(=O)(=O)N1COCCO,LYONS,E6SM,,>400 µg/mL
Nc1ncnc2c1ncn2CC=C(CO)CO,,CCL18,cytopathic effect,>100 µg/mL
Cc1cn([C@@H]2O[C@H](COP(=O)(O)O)[C@@H](O)[C@H]2O)c(=O)nc1N,G,,,>400 µg/mL
Nc1ncnc2c1ncn2C=C1CC1CO,,HFF,cytopathic effect,10.6 µM
O=c1[nH]c(=O)n([C@@H]2O[C@H](CO)[C@@H](O)[C@@H]2O)cc1/C=C/I,HG-52,HELF,plaque count,18 µg/mL
CCCCCCc1cn([C@@H]2OC3COP(=O)(O)OC3[C@H]2O)c(=O)nc1N,196,,,>400 µg/mL
O=c1c2ncn(COC(CO)CO)c2nc2[nH]c(-c3ccc(C(F)(F)F)cc3)cn12,196,HEL,cytopathic effect,9.6 µg/mL
NC1=CC(N)=NS(=O)(=O)N1COCCO,G,E6SM,,>400 µg/mL
CC(=O)/C=C/[C@]12CC[C@H](OC(C)=O)CC1=CCC1C2CC[C@@]2(C)C1CC[C@@H]2C(C)OC(C)=O,G,BHK-21,cytopathic effect,3.2 µM
Cc1cn([C@@H]2O[C@H](CO)[C@@H](O)[C@@H]2O)c(=O)[nH]c1=O,42-78,HELF,plaque count,1.4 µM
C=C1[C@H](CO)[C@@H](O)C[C@@H]1n1cnc2c(=O)[nH]c(N)nc21,,WI-38,plaque count,5.8 µM
CC(=O)OC[C@H]1[C@H](COC(C)=O)[C@@H](CO)O[C@H]1n1cnc2c(N)ncnc21,Clinical isolate HEETER,MEF,plaque count,160 µM
CCCCCCCCCCCCCCCCCOC[C@H](COP1(=O)CO[C@@H](Cn2ccc(N)nc2=O)CO1)OCc1ccccc1,SR,HFF,plaque count,>1 µM
CCCCCCCC/C=C/CCCCCCCC(=O)O,HS-44 (TK-),HEL,cytopathic effect,>100 µM
CC(=O)OCCOCN1C(C)=CC(N)=[N+](c2ccccc2)S1(=O)=O,G,E6SM,,>400 µg/mL
O=C(O)P(=O)(O)O,US,GMK,plaque count,222.3 µM
CCc1cc([C@H]2C[C@H](O)[C@@H](CO)O2)c(F)cc1F,LYONS,E6SM,cytopathic effect,>400 µg/mL
CCCCc1cn([C@H]2C[C@H](O)[C@@H](CO)O2)c(=O)[nH]c1=O,3345,BHK-21,cytopathic effect,>100 µg/mL
COC(=O)[C@H](C)NP(=O)(OCC1C/C1=C/n1cnc2c(NC3CC3)nc(N)nc21)Oc1ccccc1,,HFF,cytopathic effect,2.5 µM
CCCCCCCC/C=C\CCCCCCCOCCOP1(=O)CO[C@@H](Cn2ccc(N)nc2=O)CO1,SR,HFF,plaque count,0.04 µM
Nc1nc2c(ncn2COCCO)c(=O)[nH]1,F66556 (acyclovir-resistant),HFF,cytopathic effect,>50 µg/mL
Nc1nc2c(ncn2CCCC(O)CF)c(=O)[nH]1,G,ESM,cytopathic effect,>400 µg/mL
Nc1ccn(C[C@H]2COP(=O)(O)CO2)c(=O)n1,G,HFF,plaque count,17.6 µM
CCOC(=O)c1ccc(OCCC2CCN(c3ccc(C)nn3)CC2)cc1,HGP,KB,neutral red,0.0008 µM
Nc1ccn(CCCC(O)CF)c(=O)n1,G,ESM,cytopathic effect,>400 µg/mL
O=c1[nH]c(=O)n([C@@H]2O[C@H](CO)[C@@H](O)[C@@H]2O)cc1/C=C/Cl,MS,HELF,plaque count,19.5 µg/mL
O=Cc1cn([C@@H]2O[C@H](CO)[C@@H](O)[C@@H]2O)c(=O)[nH]c1=O,42-78,HELF,plaque count,>500 µM